Experiments:
[1] = molecular target: HIV-1 gp120-14K protein purified from CHO-K1 cells (HIV-1 (clade B, isolate BX08) | vaccinia virus) (UniProt P11258); experiment: negative-stain electron microscopy
[2] = molecular target: HIV-1 gp120-14K protein purified from CHO-K1 cells (HIV-1 (clade B, isolate BX08) | vaccinia virus) (UniProt P11258); experiment: native gel or EMSA

Substance: HIV-1 gp120-14K protein purified from CHO-K1 cells (from UniProt P11258 29-110)
- stoichiometry N [1]: 3
- stoichiometry N [2]: 3

Reference: paper PMC4514760, “A Chimeric HIV-1 gp120 Fused with Vaccinia Virus 14K (A27) Protein as an HIV Immunogen” (2015)
